Measurements reported in PubChem BioAssay AID504761 (Drosophila RNAi Screening Center, 2011).
In all, the deposit lists about 22,000 reagents; this is an unselected part of those with a known target gene and a result. Over the whole deposit, 116 (0.52%) got an active call. 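Calls depend on retest data that are not deposited; infection was ranked per plate without normalising between plates; the unit of the infection score is not given.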 Raw values are not corrected between plates. Entries without a mark were called inactive. Not all columns of the deposit are shown. Not given: the amount of reagent, the time to read-out.

Test: 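Genome-wide fly cell screen for genes dengue virus requires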 (primary screen)
System: D.Mel-2 cells from Drosophila
Knock-down reagent: long dsRNA against Drosophila genes
Conditions: infection with dengue virus type 2; dose and infection time not stated
Detection: 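Per well on two replicate plates, imaging gave the percent of cells positive for viral envelope protein, ranked by infection, and a nuclear count of cells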
Scale: infection score: higher = more virus-infected cells; cell count: higher = more cells in the well
Active means: 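Very low infection ranking in both replicate wells (chance probability at most 0.065), then a retest showing infection dropped 1.5-fold or more at p below 0.05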
Calls: active = confirmed: knock-down lowers infection; inactive = not picked or not confirmed

With CG18789 (GeneID 317813) [DRSC02696], how do the results read?
infection score, replicate 1: 5.97; cell count, replicate 1: 6470

With CG13585 (GeneID 37918) [DRSC04221], how do the results read?
infection score, replicate 1: 5.38; cell count, replicate 1: 6694

With cpo (GeneID 45840) [DRSC13265], what does the deposit list?
infection score, replicate 1: 6.44; cell count, replicate 1: 5943

Which result is listed for CG12768 (GeneID 40513) [DRSC23215]?
infection score, replicate 1: 3.05; cell count, replicate 1: 6009

For CG12768 (GeneID 40513) [DRSC28549], what does the deposit list?
infection score, replicate 1: 9.18; cell count, replicate 1: 2505

For nolo (GeneID 35424) [DRSC03705], what was measured?
infection score, replicate 1: 2.16; cell count, replicate 1: 6487

With nolo (GeneID 35424) [DRSC03719], what was measured?
infection score, replicate 1: 22.7; cell count, replicate 1: 6011

Which result is listed for nolo (GeneID 35424) [DRSC03720]?
infection score, replicate 1: 28.8; cell count, replicate 1: 5252

Reformatted: 2 of the entries above.
CG13585 (GeneID 37918) [DRSC04221]
- infection score, replicate 1: 5.38
- cell count, replicate 1: 6694

cpo (GeneID 45840) [DRSC13265]
- infection score, replicate 1: 6.44
- cell count, replicate 1: 5943

Further entries:
What did the screen give for CG14543 (GeneID 43167) [DRSC14887]?
infection score, replicate 1: 3.75; cell count, replicate 1: 4913

What is on record for CG14543 (GeneID 43167) [DRSC26647]?
infection score, replicate 1: 10.3; cell count, replicate 1: 5448

With Sesn (GeneID 37755) [DRSC04101], what was measured?
infection score, replicate 1: 21.9; cell count, replicate 1: 6555

With Sesn (GeneID 37755) [DRSC04102], how do the results read?
infection score, replicate 1: 4.37; cell count, replicate 1: 6362

Which result is listed for Sesn (GeneID 37755) [DRSC04103]?
infection score, replicate 1: 15.8; cell count, replicate 1: 6552

With Syx7 (GeneID 36173) [DRSC11763], how do the results read?
infection score, replicate 1: 2.3; cell count, replicate 1: 6472
